Source: PMC11934087 (ACS Chemical Biology, 2025)
Some peptides are written in HELM: one residue between dots, names in brackets for other building blocks, links after the first $.

assay: general procedure: Fmoc solid-phase peptide synthesis; details: whole synthesis

Substance	final HPLC purity [%]
PEPTIDE1{[ac].W.[bAla].A.A.A.E.L.T.L.Q.E.L.L.[Dap(ACA)].[am]}$$$$V2.0	98
Ac-W-βAla-AAAELΤLQELL(BAA)-CONH2	99
PEPTIDE1{[FAM].[bAla].[R8].A.A.E.L.T.L.[S5].E.L.L.[Dap(CAA)].[am]}$PEPTIDE1,PEPTIDE1,3:R3-10:R3$$$V2.0	95
PEPTIDE1{[FAM].[bAla].A.A.A.E.L.T.L.Q.E.L.L.G.[am]}$$$$V2.0	99
FAM-βAla-AAA(S5)LTL(S5)ELLG-CONH2	100
PEPTIDE1{[FAM].[bAla].A.A.A.E.L.T.L.[S5].E.L.L.[S5].[am]}$PEPTIDE1,PEPTIDE1,10:R3-14:R3$$$V2.0	97
PEPTIDE1{[FAM].[bAla].A.A.A.E.L.T.L.Q.E.L.L.[Dap(CAA)].[am]}$$$$V2.0	100
PEPTIDE1{[FAM].[bAla].A.A.A.E.[R8].T.L.Q.E.L.L.[S5].[am]}$PEPTIDE1,PEPTIDE1,7:R3-14:R3$$$V2.0	98
PEPTIDE1{[FAM].[bAla].[R8].A.A.E.L.T.L.[S5].E.L.L.G.[am]}$PEPTIDE1,PEPTIDE1,3:R3-10:R3$$$V2.0	97
PEPTIDE1{[FAM].[bAla].A.A.A.E.L.T.L.Q.E.L.L.[Dap(BAA)].[am]}$$$$V2.0	100
PEPTIDE1{[FAM].[bAla].A.A.A.E.[S5].T.L.Q.[S5].L.L.G.[am]}$PEPTIDE1,PEPTIDE1,7:R3-11:R3$$$V2.0	100
PEPTIDE1{[FAM].[bAla].[S5].A.A.E.[S5].T.L.Q.E.L.L.G.[am]}$PEPTIDE1,PEPTIDE1,3:R3-7:R3$$$V2.0	100
PEPTIDE1{[FAM].[bAla].A.[R8].A.E.L.T.L.Q.[S5].L.L.G.[am]}$PEPTIDE1,PEPTIDE1,4:R3-11:R3$$$V2.0	96
PEPTIDE1{[FAM].[bAla].A.A.A.E.L.T.L.Q.E.L.L.[Dap(ACA)].[am]}$$$$V2.0	99
PEPTIDE1{[ac].W.[bAla].A.A.A.E.L.T.L.Q.E.L.L.[Dap(CAA)].[am]}$$$$V2.0	100
